The source of these data is patent US6440986B2, “HIV Inhibiting pyrimidine derivatives” (Janssen Pharmaceutica, N.V., priority 1998, dated 2002).

The subject of the series is HIV-1. Nature of the series: in vitro anti-HIV assay: inhibition of the HIV-induced cytopathic effect in MT-4 cells (MTT). Format: cell-based. The note with it: selectivity index = ratio of CC50 to IC50. On the procedure: A rapid, sensitive and automated assay procedure was used for the in vitro evaluation of anti-HIV agents. An […] T4-cell line, MT-4, which was previously shown (Koyanagi et al., Int. J. Cancer, 36, 445-451, 1985) to be highly susceptible to and permissive for HIV infection, served as the target cell line. Inhibition of the HIV-induced cytopathic effect was used as the end point. The viability of both HIV- and mock-infected cells was assessed spectrophotometrically via the in situ reduction of 3-(4,5-dimethylthiazol-2-yl)-2,5-diphenyltetrazolium bromide (MTT). […] The percent protection achieved by the compound in HIV-infected cells was calculated by the following formula: [formula]
whereby (ODT)HIV is the optical density measured with a given concentration of the test compound in HIV-infected cells; (ODC)HIV is the optical density measured for the control untreated HIV-infected cells: (ODC)MOCK is the optical density measured for the control untreated mock-infected cells; all optical density values were determined at 540 nm. […] The ratio of CC50 to IC50 was defined as the selectivity index (SI).
In general terms: Cytopathic effects are the visible damage that an infection or toxin causes in cultured cells.
On to `N#Cc1ccc(Nc2nc(Cc3c(Cl)cccc3Cl)cc(NCCO)n2)cc1` [Compound 2], for which the SI was greater than 2890.

In the case of `N#Cc1ccc(Nc2nc(Cc3c(Cl)cccc3Cl)cc(NCC(O)c3ccccc3)n2)cc1` (centres unmarked) [Compound 4], the SI is greater than 317.

Regarding `CC(C)OCCCNc1cc(Cc2c(Cl)cccc2Cl)nc(Nc2ccc(C#N)cc2)n1.Cl` [Compound 7], the SI is given as greater than 102.

In the case of `COc1cccc(CCNc2cc(Cc3c(Cl)cccc3Cl)nc(Nc3ccc(C#N)cc3)n2)c1` [Compound 8], the SI is greater than 12.

On to `COc1ccc(CCNc2cc(Cc3c(Cl)cccc3Cl)nc(Nc3ccc(C#N)cc3)n2)cc1` [Compound 10], for which the SI is greater than 39.

`N#Cc1ccc(Nc2nc(Cc3c(Cl)cccc3Cl)cc(NCc3ccccc3)n2)cc1` [Compound 12]: the SI turned out to be 32.

As for `N#Cc1ccc(Nc2nc(Cc3c(Cl)cccc3Cl)cc(NCCc3cccs3)n2)cc1` [Compound 14], the SI was 40.

`N#Cc1ccc(Nc2nc(Cc3c(Cl)cccc3Cl)cc(NCCc3ccccn3)n2)cc1` [Compound 16]: the SI turned out to be 105.

As to `CCCCCCCC(=O)Nc1cc(Cc2c(Cl)cccc2Cl)nc(Nc2ccc(C#N)cc2)n1` [Compound 17, N-[6-[(2,6-dichloro-phenyl)methyl]-2-[(4-cyano-phenyl)amino]-4-pyrimidinyl]octanamide], the SI was found to be 54.

As to `CCCCCCCCCCCC(=O)Nc1cc(Cc2c(Cl)cccc2Cl)nc(Nc2ccc(C#N)cc2)n1` [Compound 18], the SI came out at 29.

For `CCOC(=O)Nc1cc(Cc2c(Cl)cccc2Cl)nc(Nc2ccc(C#N)cc2)n1` [Compound 20], the SI was found to be 1413.

For the compound `CNc1cc(Cc2c(Cl)cccc2Cl)nc(Nc2ccc(C#N)cc2)n1` [Compound 24], the SI was found to be 2667.

In the case of `N#Cc1ccc(Nc2nc(Cc3c(Cl)cccc3Cl)cc(NC(=O)CN3CCCCC3)n2)cc1` [Compound 25, N-[6-[(2,6-dichloro-phenyl)methyl]-2-[(4-cyano-phenyl)amino]-4-pyrimidinyl]-1-piperidine-acetamide], the SI was greater than 1272.

On to `CN(C)C=Nc1cc(Cc2c(Cl)cccc2Cl)nc(Nc2ccc(C#N)cc2)n1` [Compound 26, N′-[2-[(4-cyanophenyl)amino]-6-[(2,6-dichlorophenyl)methyl]-4-pyrimidinyl]-N,N-dimethylmethanimidamide], for which the SI was 2990.

With `Nc1cc(Cc2c(Cl)cccc2Cl)nc(Nc2ccc(Br)cc2)n1` [Compound 27], the SI is reported as greater than 1169.

Consider `Nc1nc(Cc2c(Cl)cccc2Cl)cc(Nc2ccc(Br)cc2)n1` [Compound 28], for which the SI is given as greater than 253.

`Nc1cc(Cc2c(Cl)cccc2Cl)nc(Nc2ccc(Cl)cc2)n1` [Compound 29]: the SI is recorded as greater than 1324.

As for `Nc1nc(Cc2c(Cl)cccc2Cl)cc(Nc2ccc(Cl)cc2)n1` [Compound 30], the SI was greater than 228.

Consider `Nc1nc(Cc2c(Cl)cccc2Cl)cc(Nc2ccc(Br)cn2)n1` [Compound 31], for which the SI is 3630.

In the case of `Nc1cc(Cc2c(Cl)cccc2Cl)nc(Nc2ccc(Br)cn2)n1` [Compound 32], the SI is listed as greater than 248.

For `Nc1nc(Cc2c(Cl)cccc2Cl)cc(Nc2ccc(F)cc2)n1` [Compound 34], the SI stood at 181.

On to `Cc1ccc(Nc2nc(N)cc(Cc3c(Cl)cccc3Cl)n2)cc1` [Compound 35], for which the SI is on record as 409.

With `Cc1ccc(Nc2cc(Cc3c(Cl)cccc3Cl)nc(N)n2)cc1` [Compound 36], the SI is on record as greater than 309.

As for `Nc1cc(Cc2c(Cl)cccc2Cl)nc(Nc2ccccc2)n1` [Compound 37], the SI is 75.

Regarding `Nc1nc(Cc2c(Cl)cccc2Cl)cc(Nc2ccccc2)n1` [Compound 38], the SI is on record as 13.

In the case of `N#Cc1ccc(Nc2cc(Cc3c(Cl)cccc3Cl)nc(NCCCN3CCCC3=O)n2)cc1` [Compound 39, 4-[[6-[(2,6-dichloro-phenyl)methyl]-2-[[3-(2-oxo-1-pyrrolidinyl)propyl]amino]-4-pyrimidinyl]amino]benzonitrile], the SI was greater than 65.

`Cl.N#Cc1ccc(Nc2cc(Cc3c(Cl)cccc3Cl)nc(NCCO)n2)cc1` [Compound 40]: the SI was found to be 158.

Consider `CNc1nc(Cc2c(Cl)cccc2Cl)cc(Nc2ccc(C#N)cc2)n1` [Compound 41], for which the SI turned out to be 17.

As for `N#Cc1ccc(Nc2cc(Cc3c(Cl)cccc3Cl)nc(NCCCO)n2)cc1` [Compound 42], the SI was 88.

With `N#Cc1ccc(Nc2cc(Cc3c(Cl)cccc3Cl)nc(NCCCCO)n2)cc1` [Compound 43], the SI is greater than 165.

As for `N#Cc1ccc(Nc2cc(Cc3c(Cl)cccc3Cl)nc(N)n2)cc1` [Compound 45], the SI was 5688.

With `Cc1c(Cc2c(Cl)cccc2Cl)nc(N)nc1Nc1ccc(C#N)cc1` [Compound 46], the SI is greater than 2.

For the compound `Cc1c(Cc2c(Cl)cccc2Cl)nc(N)nc1Nc1ccc(Br)cc1` [Compound 48], the SI was greater than 1.

On to `N#Cc1ccc(Nc2cc(Oc3c(Cl)cccc3Cl)nc(N)n2)cc1` [Compound 50], for which the SI is 100.

Regarding `N#Cc1ccc(Nc2cc(N)nc(Cc3c(Cl)cccc3Cl)n2)cc1` [Compound 51], the SI is greater than 221.

As for `Cc1cc(Br)cc(C)c1Nc1ccnc(Nc2ccc(C#N)cc2)n1.Cl` [Compound 56], the SI stood at 839.

With `Cc1cc(C)c(Oc2ccnc(Nc3ccc(C#N)cc3)n2)c(C)c1` [Compound 58, 4-[[4-(2,4,6-trimethylphenoxy)-2-pyrimidinyl]amino]benzonitrile], the SI is recorded as greater than 34482.

`N#Cc1ccc(Nc2nccc(Sc3c(Cl)cccc3Cl)n2)cc1` [Compound 59]: the SI is reported as greater than 83333.

On to `N#Cc1ccc(Nc2nccc(Oc3c(Cl)cc(Cl)cc3Cl)n2)cc1` [Compound 60], for which the SI is greater than 350.

As for `Cc1cc(Br)c(Nc2ccnc(Nc3ccc(C#N)cc3)n2)c(Br)c1` [Compound 61, 4-[[4-[(2,6-dibromo-4-methylphenyl)amino]-2-pyrimidinyl]amino]benzonitrile], the SI came to 155.

Turning to `Cc1cc(C)c(Nc2nc(Nc3ccc(C#N)cc3)ncc2C)c(C)c1` [Compound 63], the SI came out at 198.

As for `Cc1cc(Cl)cc(Cl)c1Oc1ccnc(Nc2ccc(C#N)cc2)n1` [Compound 64], the SI was greater than 840.

Take `N#Cc1ccc(Nc2nccc(Nc3c(Cl)cccc3Cl)n2)cc1` [Compound 65]: the SI came out at 1.

In the case of `N#Cc1ccc(Nc2nccc(Nc3c(Cl)cc(F)cc3Br)n2)cc1` [Compound 67], the SI was 152.

On to `Cc1cc(C)c(Sc2ccnc(Nc3ccc(C#N)cc3)n2)c(C)c1` [Compound 73], for which the SI is on record as greater than 27777.

In the case of `Cc1cc(Cl)cc(Br)c1Oc1ccnc(Nc2ccc(C#N)cc2)n1` [Compound 74], the SI is listed as greater than 9523.

As for `Cc1cc(C#N)cc(C)c1Oc1ccnc(Nc2ccc(C#N)cc2)n1` [Compound 81], the SI is listed as greater than 90909.

As to `Cc1cc(C)c(Sc2nc(Nc3ccc(C#N)cc3)ncc2C)c(C)c1` [Compound 86], the SI is recorded as greater than 9803.

Regarding `Cc1cc(C)c(Nc2ccnc(Nc3ccc(C#N)cc3N)n2)c(C)c1` [Compound 90], the SI is reported as 9.

For the compound `Cc1cc(C)c(Nc2ccnc(Nc3ccc(C#N)c(O)c3)n2)c(C)c1` [Compound 91], the SI was determined as 1976.

Regarding `Clc1cccc(Cl)c1Nc1ccnc(Nc2c(Cl)cccc2Cl)n1` [Compound 92], the SI was greater than 2.

Consider `Cc1cc(C)c(Nc2ccnc(Nc3ccc(F)cc3F)n2)c(C)c1` [Compound 97], for which the SI turned out to be 415.

For `Cc1cc(C)c(Nc2ccnc(Nc3ccc(Br)cn3)n2)c(C)c1` [Compound 98], the SI was 7.

As to `Cc1cc(C)c(Nc2ccnc(Nc3ccc(C(N)=O)cc3)n2)c(C)c1` [Compound 100, 4-[[4-[(2,4,6-trimethylphenyl)amino]-2-pyrimidinyl]amino]benzamide], the SI worked out at 10.

Regarding `Cc1cc(C)c(Nc2ccnc(Nc3ccc(C(N)=O)c(N)c3)n2)c(C)c1` [Compound 101], the SI worked out at 558.

Turning to `Cc1cc(C)c(Nc2ccnc(Nc3ccc(C#N)c(N)c3)n2)c(C)c1` [Compound 102], the SI came to 63.
